# Several values for one entry are separate records, joined by “and”; a condition that tells them apart may be missing. Equal values may be shown once. The list shows a part of the results. Results filed as inconclusive are left out. Activity calls are given as the source filed them.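 Rule for the calls: active = inhibition above a set limit at one or more doses, reproduced on every date tested; inconclusive = results disagree between test dates, or hit never tested in dose response; inactive = the rest.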
# Amino acid sequences for entries named in this document (tags omitted). A change or cut given only in a name is not applied to a line headed by its entry.
# UniProt P69720: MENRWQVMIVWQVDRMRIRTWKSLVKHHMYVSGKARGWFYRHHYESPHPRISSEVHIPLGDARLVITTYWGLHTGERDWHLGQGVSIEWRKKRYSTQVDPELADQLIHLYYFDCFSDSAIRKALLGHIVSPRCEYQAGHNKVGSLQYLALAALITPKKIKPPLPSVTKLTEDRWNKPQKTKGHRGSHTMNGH
# UniProt P69721: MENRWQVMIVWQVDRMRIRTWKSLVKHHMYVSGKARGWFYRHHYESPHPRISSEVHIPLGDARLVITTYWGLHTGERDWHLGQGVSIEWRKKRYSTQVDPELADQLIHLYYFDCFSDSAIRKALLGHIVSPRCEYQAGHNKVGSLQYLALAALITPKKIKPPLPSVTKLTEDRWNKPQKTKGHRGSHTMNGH
# UniProt P69722: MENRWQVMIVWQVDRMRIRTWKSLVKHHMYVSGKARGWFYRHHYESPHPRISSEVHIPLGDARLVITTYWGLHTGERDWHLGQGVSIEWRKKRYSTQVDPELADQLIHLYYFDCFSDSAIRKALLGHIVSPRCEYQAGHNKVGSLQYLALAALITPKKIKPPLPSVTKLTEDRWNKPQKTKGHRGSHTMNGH
# UniProt P69723: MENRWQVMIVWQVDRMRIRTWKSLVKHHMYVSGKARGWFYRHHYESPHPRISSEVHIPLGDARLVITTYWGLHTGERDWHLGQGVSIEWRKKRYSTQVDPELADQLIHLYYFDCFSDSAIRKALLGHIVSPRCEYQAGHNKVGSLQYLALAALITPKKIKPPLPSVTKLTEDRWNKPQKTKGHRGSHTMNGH
# UniProt Q9HC16: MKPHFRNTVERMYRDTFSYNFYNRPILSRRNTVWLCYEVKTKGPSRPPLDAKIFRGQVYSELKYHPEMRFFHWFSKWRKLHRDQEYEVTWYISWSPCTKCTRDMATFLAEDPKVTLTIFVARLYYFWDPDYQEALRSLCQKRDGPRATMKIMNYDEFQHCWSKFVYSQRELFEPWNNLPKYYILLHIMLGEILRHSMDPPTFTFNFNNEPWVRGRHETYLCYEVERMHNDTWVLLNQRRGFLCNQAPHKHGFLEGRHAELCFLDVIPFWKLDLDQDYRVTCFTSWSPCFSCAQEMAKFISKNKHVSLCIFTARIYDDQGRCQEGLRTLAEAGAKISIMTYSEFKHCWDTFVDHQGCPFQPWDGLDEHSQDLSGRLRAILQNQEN
# Molecular target: Virion infectivity factor (Human immunodeficiency virus type 1 group M subtype B (isolate BH10)) + Virion infectivity factor (Human immunodeficiency virus type 1 group M subtype B (isolate BRU/LAI)) + Virion infectivity factor (Human immunodeficiency virus type 1 group M subtype B (isolate PCV12)) + Virion infectivity factor (Human immunodeficiency virus type 1 group M subtype B (isolate HXB2)) + DNA dC->dU-editing enzyme APOBEC-3G (Homo sapiens) (UniProt P69720+P69721+P69722+P69723+Q9HC16)
# Assay: inhibitors of Vif binding to APOBEC3G peptide, primary screen, biochemical, TR-FRET, GST-Vif 1-94, biotin-A3G peptide, dose response retest (AID 1117319);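 note: Vif residues 1-94 fused to GST binding biotinylated APOBEC3G peptide 110-148; 0% = full assay without inhibitor and 100% = GST in place of GST-Vif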
# Details: stronger effect = higher value
row,Compound,inhibition
1,COc1cc(C(=O)NCC2(N3CCOCC3)CCCCC2)cc(Cl)c1OC(C)C,inactive: -7.83%
2,O=[As](O)(c1cccc(O)c1)c1cccc(O)c1,inactive: -4.22%
3,Nc1cccc2c([As](=O)(O)O)cccc12,inactive: 23.4%
4,Cc1ccc(NCCc2c([N+](=O)[O-])cc([N+](=O)[O-])cc2[N+](=O)[O-])cc1,inactive: 32.4%
5,CCOP(=O)(Nc1cccc2ccccc12)OCC,inactive: -1.08%
6,O=P1(Nc2nc3ccc(Cl)cc3s2)COc2ccccc2O1 (stereo not given),inactive: 5.1%
7,CC(C)(C)C(=O)NC(Sc1ccccc1)C(Cl)(Cl)Cl (stereo not given),inactive: -11.4%
8,CCc1cc(O)c([N+](=O)[O-])c(C)c1[N+](=O)[O-],inactive: 2.73%
9,Cc1ccccc1CN(C)C(=O)COC(=O)C(O)(c1ccccc1)c1ccccc1,inactive: -0.25%
10,COC(=O)C1(C)COP(=O)(NCc2ccccc2)OC1 (stereo not given),inactive: -2.98%
11,CC(=O)Nc1ccc(Oc2c([N+](=O)[O-])cc([N+](=O)[O-])cc2[N+](=O)[O-])cc1,inactive: 8.97%
12,CC(=O)Nc1ccc([As](=O)(O)O)c(O)c1,inactive: 17.3%
13,CCOC(=O)NC(Sc1ccccc1)C(Cl)(Cl)Cl (stereo not given),inactive: -0.6%
14,c1ccc(-c2nn[nH]n2)c(-c2nn[nH]n2)c1,inactive: -1.33%
15,O=C(NC1CCS(=O)(=O)C1)NP(=S)(Oc1ccccc1)Oc1ccccc1 (stereo not given),inactive: -0.18%
16,CCNC(=S)/N=C(\N)N[N+](=O)[O-],inactive: -0.55%
17,O=P1(N(CCCl)CCCl)OCCC2CCCCN21 (stereo not given),inactive: 1.88%
18,CCC(=O)N1C2C3N(C(=O)CC)C1C1N(C(=O)CC)C(C(N1C(=O)CC)N3C(=O)CC)N2C(=O)CC,inactive: 29.2%
19,COC(=O)c1cc2c(s1)N=C(c1ccccc1)N(C)P2(=O)N1CCOCC1 (stereo not given),inactive: -6.29% and inactive: -4.92%
20,O=c1c2cc([N+](=O)[O-])ccc2[nH]c2c([N+](=O)[O-])cc([N+](=O)[O-])cc12,inactive: -11.5%
21,CN(C)C(=O)Oc1noc2ccccc12,inactive: 3.92%
22,Cc1ccccc1OP(=O)(Nc1ccccn1)Oc1ccccc1C,inactive: -0.15%

row,Compound,inhibition
1,CN(C)C1(CNC(=O)c2ccc(Cl)c(S(N)(=O)=O)c2)CCCCC1,inactive: 0%
2,O=P(Nc1ccccn1)(c1ccc(Br)cc1)c1ccc(Br)cc1,inactive: -3.08%
3,COc1ccc(N)c([N+](=O)[O-])c1[N+](=O)[O-],inactive: 3.74%
4,O=[As](O)(c1ccccc1)c1ccc(O)cc1,inactive: 3.61%
5,O=[N+]([O-])c1ncn(CCn2cnc([N+](=O)[O-])n2)n1,inactive: 15%
6,CC(=O)NC(SC(=S)N(C)C)C(Cl)(Cl)Cl (stereo not given),inactive: -4.05%
7,O=[N+]([O-])c1ccc(O)c(/C=N/Nc2ccc([N+](=O)[O-])cc2[N+](=O)[O-])c1,inactive: 1.85%
8,O=C(OC1CN2CCC1CC2)c1cccc(Cl)c1 (stereo not given),inactive: -4.18%
9,C(Cc1nn[nH]n1)Cc1nn[nH]n1,inactive: 7.64%
10,O=P(Nc1nccs1)(c1ccccc1)c1ccccc1,inactive: -4.61%
11,c1nnnn1CCn1cnnn1,inactive: -3.36%
12,COc1ccc(C2=NCC(CBr)S2)cc1 (stereo not given),inactive: 24.9%
13,O=[N+]([O-])c1cc([N+](=O)[O-])c(CCNc2ccccc2)c([N+](=O)[O-])c1,inactive: 27.7%
14,Cc1ccc(NP(=O)(Oc2ccccc2)Oc2ccccc2)nc1,inactive: -11%
15,CC(=O)N1C2C3N(C(C)=O)C1C1N(C(C)=O)C(C(N1C(C)=O)N3C(C)=O)N2C(C)=O,inactive: 4.03%
16,O=[N+]([O-])c1cccc2n[nH]nc12,inactive: -3.09%
17,CCN(/C(=N/P(=O)(N1CCOCC1)N1CCOCC1)N1CCOCC1)c1ccc(OC)cc1,inactive: -0.96%
18,CC1CCN(C(=O)Oc2c(Cl)cc(Cl)c3cccnc23)CC1,inactive: -9.82%
19,CN(C)C(=O)OCCc1n(C)cc[n+]1C,inactive: -11.5%
20,CC(C)c1nc(Nc2ccccc2)n(P(=O)(N(C)C)N(C)C)n1,inactive: -5.37%
21,O=P1(N(CCCl)CCCl)OCCCS1 (stereo not given),inactive: -1.15%
22,O=C(Nc1cc([As](=O)(O)O)ccc1O)c1ccccc1,inactive: 14.5%

row,Compound,inhibition
1,O=[N+]([O-])c1ncn(CCn2ncnc2[N+](=O)[O-])n1,inactive: 0.22%
2,CC(C)(C)C(=O)NC(Sc1ccncn1)C(Cl)(Cl)Cl (stereo not given),inactive: -10.8%
3,O=C(O)CNc1ccc([As](=O)(O)O)cc1,inactive: 4.93%
4,COC(=O)C1(C)COP(=O)(Nc2ccccc2)OC1 (stereo not given),inactive: -9.99%
5,O=[N+]([O-])c1cccc(NC2=NCC(CBr)S2)c1 (stereo not given),inactive: 67.5%
6,CN(C)P(=O)(N(C)C)n1c(Nc2ccccc2)nnc1-c1ccccc1,inactive: -0.18%
7,CCCC1OP(N)(=O)OCC1CC (stereo not given),inactive: -7.84%
8,CC(=O)Nc1ccc([As](=O)(O)O)cc1,inactive: -0.1%
9,O=C(O)c1ccccc1[As](=O)(O)O,inactive: -6.03%
10,Cc1ccc(NP(=O)(Oc2ccccc2F)Oc2ccccc2F)nc1,inactive: 5.44%
11,CCOP(=O)(Nc1ccccc1)OCC,inactive: 12.7% and inactive: 1.03%
12,CCN(N=Nc1nonc1N)c1nonc1N,inactive: -5.26%
13,Cc1ccc(N/C(=N/P(=O)(N2CCOCC2)N2CCOCC2)N2CCOCC2)cc1,inactive: -5.21%
14,NC(=O)c1cc([N+](=O)[O-])cc([N+](=O)[O-])c1N,inactive: -7.4%
15,CN1CCCC(OC(=O)C(c2ccccc2)c2ccccc2)C1 (stereo not given),inactive: -0.09%
16,Clc1ccc(Cl)c(NC2=NCC(CBr)S2)c1 (stereo not given),inactive: -8.33%
17,Cc1ccc(OP(=O)(Nc2nccs2)Oc2ccc(C)cc2)cc1,inactive: -11.5%
18,O=C(NC(Sc1ccncn1)C(Cl)(Cl)Cl)c1ccccc1 (stereo not given),inactive: -8.37%
19,Cc1c2non([O-])c-2c(C)[n+](=O)[n+]1[O-],inactive: 4.79%
20,Oc1ccccc1CNc1ccccn1,inactive: -3.64%
21,CC(C)CC(=O)NC(Sc1ccc(Cl)cc1)C(Cl)(Cl)Cl (stereo not given),inactive: -5.71%
